Primary screen of a compound library

Data taken from ChEMBL document CHEMBL3988442, “University of Dundee, Small-Polar-MMV Screening Library” (2021).

Mtb glucose medium: 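Whole-cell growth test on Mycobacterium tuberculosis, read after 3 days in glucose-containing 7H9 medium; the read-out is not stated. Compounds at 50 µM. Direction is inferred from retests: higher values go with more growth inhibition. Of about 69,000 compounds tested this way, about 760 (1.1%) reached 50% or more in at least one test.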
Mtb cholesterol medium: 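Phenotypic screen: M. tuberculosis growth, cholesterol and DPPC medium, 4 days; the read-out is not stated. Concentration: 50 µM. Direction is inferred from retests: higher values go with more growth inhibition. About 69,000 compounds were tested under these conditions; 0.54% (about 370) showed 50% or more at least once.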

Each number is a percent effect as filed.
The controls that fix the scale are not given in the record; negative values are as filed.
Many other results are left out here, so strong results are more common than in the screen.
Two or more numbers in one place are separate tests of the same structure; such repeats can differ widely.
A dash means the value is not listed here; it may have been measured.

structure	Mtb glucose medium	Mtb cholesterol medium
Cl.NC(CC1CCCC1)c1ccccc1 (stereo not shown)	-26.72	1.854
COc1cccc(CNC(C)Cn2cccn2)c1OC.Cl (stereo not shown)	33.73	-
O=C(NCCCn1cccn1)c1nnc2ccccc2n1	37.54	-
Cn1cc(CN2CCC(F)(F)C3(CCN(c4ccccn4)C3)C2)cn1.O=C(O)C(F)(F)F.O=C(O)C(F)(F)F (stereo not shown)	-	15.48
COc1cccc(C(=O)Nc2cc(CC(C)C)nn2C)c1	33.49	-9.563
Cc1cc(NCCNc2cccnc2)nc(-c2ccccc2O)n1	44.59	-
Cc1cc(C)c2ncc(C#N)c(NC3CCN(CC(N)=O)CC3)c2c1	-19.37 and 27.9	-
O=C(CCN1CCCC1c1cccc2c1OCCO2)N1CCOCC1 (stereo not shown)	50.18	-
O=C(NCCNc1ncccn1)NCCSC(F)(F)F	0.9432 and -10.58	-8.081
Cc1cc(C)n(CC(C)NC(=O)C2(c3ccccc3F)CC2)n1 (stereo not shown)	-14.26	-8.196
CC(C)Oc1ccc(C(O)CNCc2ccccc2C(F)(F)F)cc1 (stereo not shown)	36.97	-
Cc1cnn(CCNCc2nccn2CC(F)(F)F)c1	11.92	20.12
COc1ccc(C)cc1CN1CCC(c2cc3ncccc3cn2)CC1.Cl	103.8	104.2
N#Cc1cn[nH]c1NCc1cc(Cl)cc(Cl)c1O	-21.24	-
O=C(NCCCNC(=O)c1ccc(F)cc1F)c1cccc(O)c1	33.7	8.262
COc1cc(C(=O)N2CC(Oc3ccccc3Cl)C2)ccn1	-	18.72
Cc1nc(CCCC(=O)Nc2cccc(N3CCNC3=O)c2)cs1	-7.362 and 5.853	-
Nc1cc(N2CCCC(COc3ccc(F)cc3)C2)ncn1 (stereo not shown)	26.24	11.34
[H][C@@]12CCCCN(C)[C@]1([H])[C@@H](c1ccccc1)CCN2C(=O)c1ccncc1	14.66	-
O=C(Cc1cccs1)N1CC(c2nc(-c3cnccn3)no2)C1	-0.5947 and -14.13	-
CNC(=O)CNCC1(O)CCCN(Cc2ccc(F)c(F)c2)C1=O (stereo not shown)	23.51	-
O=C(CSc1nncs1)N1CCN(Cc2ccc(Cl)s2)CC1	46.45 and 40.25	44.42
COc1ccc(OC)c(CNCc2c(C(C)C)nn(C)c2N(C)C)c1	12.92	2.12
OC1(CN2CCCC2)CCCN(Cc2ccc(F)cc2Cl)C1 (stereo not shown)	58.85	-
CC(C)N(CCSc1ncnc2[nH]ncc12)C(C)C	22.77	-1.475
O=C(Nc1ccccn1)C1(n2cnnn2)CCCCC1	11.11	-
Cc1ccc(Oc2c(F)cccc2OC[C@@H](N)CC(C)C)cc1	87.35	74.14
CN(Cc1ccon1)C(=O)CN1C(=O)OC(C)(C)C1=O	0.7899 and 7.97	-
Cc1cc(NCCO)nc(-c2ccccc2O)n1	3.411 and 4.539	-
Cl.Cl.Clc1cccc(C[C@@H]2NCCC[C@@H]2Nc2ccccc2)c1	111.4	105.7
COc1ccccc1-c1ncc(CN2C[C@H](O)[C@@H](N3CCCC3)C2)s1	36.85	-
Cc1ccc(N2N=C(C(=O)O)S(=O)(=O)c3cccnc32)cc1	34.61	1.425
CCn1cc(CN(C)S(=O)(=O)c2ccc(C(C)C)cc2)cn1	62.73	-
Cc1cc(CN(C)CC2(O)CCCN(CCC3CCCCC3)C2=O)no1 (stereo not shown)	-15.26	69.28
CCn1ccc(C(=O)N(C)Cc2cnn(-c3cccc(OC)c3)c2)n1	13.03	-
Clc1cccc(-c2noc(CCN3CCN(c4ccncc4)CC3)n2)c1	29.59 and 25.33	38.29
CC(C)NCc1nc(-c2ccc3c(c2)OCO3)c[nH]1.Cl.Cl	111.8 and 3.985	-
c1ccc2nc(N3CCOC(Cn4cncn4)C3)cnc2c1 (stereo not shown)	-9.949	-9.851
Br.Cc1cccc(N(CC(=O)c2ccccc2)C2=NCCCCC2)c1	54.95	25.53
CCc1c(C)n(C)c2nc3ccccc3n2c1=O	-10.73 and -5.159	-
COc1cccc(-c2noc(-c3ccc(NCCCO)nc3)n2)c1OC	45.46	-
CC(C)(C)c1cc(CN2CCOC(CN)C2)n[nH]1 (stereo not shown)	-	-29.65
COC(=O)c1cccc(C(=O)N(C)Cc2ccsc2)c1	-27.47	-
COc1ccc(CN2CCC(O)(CN3CCCCC3)C2)c(C)c1 (stereo not shown)	2.125	-
N#CC1(C(=O)N2CCN(c3nccs3)CC2)CCCCC1	11.87	-10.92
O=C(c1coc(COc2cccc3cnccc23)n1)N1CCCCCC1	-2.957 and -8.657	10.93 and -9.499
COCCC1(CNC(=O)NCC2CCC2)CCC1	-	23.64
COc1ccccc1C(=O)N1CCOC2(CCCN(C(C)=O)C2)C1 (stereo not shown)	-	-3.238 and 9.51
CC(Cn1cccn1)NCc1csc(-c2cccs2)n1 (stereo not shown)	12.88	-21.71
CC1CCN(C(=O)C(C)Oc2ccc3c(c2)OCO3)CC1 (stereo not shown)	60.72	-
O=C(Nc1cccnn1)NC(CCCO)c1ccccc1 (stereo not shown)	4.339	11.42
CN1CCN(c2ccccc2NC(=O)c2ccco2)CC1	39.54	13.13
Cc1cccc(CN(Cc2ccccn2)Cc2ncc(C(C)(C)C)o2)c1	15.56 and 20.65	-
O=C(NCCNc1ccc(C(F)(F)F)cn1)c1cncc(Br)c1	5.744	-20.31
Cc1cnc(NC(=O)C(C)Oc2ccc3c(c2)OCO3)s1 (stereo not shown)	44.08	-

Some entries from above, unchanged:

With N#Cc1cn[nH]c1NCc1cc(Cl)cc(Cl)c1O the screen gave Mtb glucose medium: -21.24%.
With O=C(NCCCn1cccn1)c1nnc2ccccc2n1 the screen gave Mtb glucose medium: 37.54%.
With N#CC1(C(=O)N2CCN(c3nccs3)CC2)CCCCC1 the screen gave Mtb glucose medium: 11.87%; Mtb cholesterol medium: -10.92%.
With Cc1cc(C)n(CC(C)NC(=O)C2(c3ccccc3F)CC2)n1 (stereo not shown) the screen gave Mtb glucose medium: -14.26%; Mtb cholesterol medium: -8.196%.
With CC(C)Oc1ccc(C(O)CNCc2ccccc2C(F)(F)F)cc1 (stereo not shown) the screen gave Mtb glucose medium: 36.97%.
With Cl.NC(CC1CCCC1)c1ccccc1 (stereo not shown) the screen gave Mtb glucose medium: -26.72%; Mtb cholesterol medium: 1.854%.
With Cc1cccc(CN(Cc2ccccn2)Cc2ncc(C(C)(C)C)o2)c1 the screen gave Mtb glucose medium: 15.56% and 20.65%.